Laboratory results from patent US10138384B2, “Ophthalmic and contact lens solutions using bicine” (priority 2000, dated 2018).

Tested on: C. albicans
Assay: In vitro microbicidal activity, 0.2% phosphate buffer with PHMB (Example 4)
Assay type: cell-based
Settings: additive 0.5%, PHMB 0.0001%, pH 7.2, 4 hours, buffer control 0.99

OCCN(CCO)CCO
Improvement (log reduction versus buffer control): 0.83
